Measured values from several laboratories, pooled; numbers as filed in NIAID ChemDB.

Shared fields: whole-cell or culture tests; agent: Candida krusei

A number after MIC or MFC names an inhibition level or a share of isolates.

SMILES,endpoint,strain,method,conditions,result
CCCCCCn1cc[n+](COCCCOC[n+]2ccn(CCCCCC)c2)c1,MIC100,ATCC 6258,agar diffusion,,649 µM
C[C@@H](N1CCN(Cc2cn(Cc3cccc(C(F)(F)F)c3)c3ccccc23)CC1)[C@](O)(Cn1cncn1)c1ccc(F)cc1F,MIC80,ATCC 6258,resazurin,,1 µg/mL
O=C(CCn1ccnc1)c1ccc2ccccc2c1,MIC,RTCC 1090,broth dilution,,16 µg/mL
CCOc1ccc2nc3cc(N=C4NC(=O)/C(=C\c5ccc([N+](=O)[O-])cc5)S4)ccc3c(N)c2c1,MFC,,broth dilution,,750 µg/mL
Clc1ccccc1C(c1ccccc1)(c1ccccc1)n1ccnc1,MIC,Clinical isolates,,24 h,4 µg/mL
OC(CCn1ccnc1)c1ccc(-c2ccccc2)cc1,MIC,RTCC 1001,broth dilution,,>64 µg/mL
CC(O)Cn1cc(CN2CCN([C@H](C)[C@](O)(Cn3cncn3)c3ccc(F)cc3F)CC2)c2cccc(Cl)c21,MIC80,ATCC 6258,resazurin,,16 µg/mL
CC(C)NS(=O)(=O)c1ccc(CN(C)CC(O)(Cn2cncn2)c2ccc(F)cc2F)cc1,MIC,8,resazurin,,1.8 µg/mL
C[C@@H](N1CCN(Cc2c[nH]c3ccccc23)CC1)[C@](O)(Cn1cncn1)c1ccc(F)cc1F,MIC80,ATCC 6258,resazurin,,16 µg/mL
CCCCCCn1cc[n+](COCCCCCCOC[n+]2ccn(CCCCCC)c2)c1,MIC100,ATCC 6258,agar diffusion,,2406 µM
CC1CC(=O)N(Cc2ccccc2)C1=O,MIC,CCC 117-2000,broth dilution / turbidity,,125 µg/mL
CCCn1cc[n+](COCCCOC[n+]2ccn(CCC)c2)c1,MIC100,ATCC 6258,agar diffusion,,1576 µM
C[C@@H]1CC(=O)N(c2ccc(F)cc2)C1=O,MIC,CCC 117-2000,broth dilution / turbidity,,31.3 µg/mL
CN(Cc1ccc(NS(=O)(=O)c2ccccc2)cc1)CC(O)(Cn1cncn1)c1ccc(F)cc1F,MIC,8,resazurin,,1.7 µg/mL
C[C@@H](N1CCN(Cc2cn(Cc3ccc(F)cc3)c3c(F)cccc23)CC1)[C@](O)(Cn1cncn1)c1ccc(F)cc1F,MIC80,ATCC 6258,resazurin,,1 µg/mL
Cc1ccccc1N1C(=O)C[C@@H](C)C1=O,MIC,CCC 117-2000,broth dilution / turbidity,,62.5 µg/mL
CC(C)(O)c1cn(-c2ccc(Cl)cc2)nn1,MIC,URM 4263,broth dilution,,256 µg/mL
CC(C)CC(O)C(=O)O,MFC100,ATCC 6258,broth dilution / visual reading,,72000 µg/mL
O=C(CCn1ccnc1)c1cccc(O)c1,MIC,RTCC 1001,broth dilution,,>64 µg/mL
C[C@@H](N1CCN(Cc2cn(Cc3ccc(C(F)(F)F)cc3)c3c(F)cccc23)CC1)[C@](O)(Cn1cncn1)c1ccc(F)cc1F,MIC80,ATCC 6258,resazurin,,1 µg/mL
O=C(CCn1ccnc1)c1cccc2ccccc12,MIC,RTCC 1001,broth dilution,,>64 µg/mL
CC(C)S(=O)(=O)Nc1ccc(CN(C)CC(O)(Cn2cncn2)c2ccc(F)cc2F)cc1,MIC,506,resazurin,,17.5 µg/mL
CCC(C)CC(C)CCCCCCCCC(=O)N[C@H]1C[C@@H](O)[C@H](NCCN)NC(=O)[C@@H]2[C@@H](O)CCN2C(=O)[C@H]([C@H](O)CCN)NC(=O)[C@H]([C@H](O)[C@@H](O)c2ccc(O)cc2)NC(=O)[C@@H]2C[C@@H](O)CN2C(=O)[C@H]([C@@H](C)O)NC1=O,MIC50,ATCC 6258,broth dilution,,0.25 µg/mL
OC(CCn1ccnc1)c1ccc(Br)cc1,MIC,RTCC 1001,broth dilution,,>64 µg/mL
CCCCCCCCCCCn1cc[n+](COCCCCCOC[n+]2ccn(CCCCCCCCCCC)c2)c1,MIC100,ATCC 6258,agar diffusion,,4 µM
CC(C)C(NC(=O)C(N)Cc1ccccc1)C(=O)NC(CCCN=C(N)N)C(=O)O,MIC,ATCC 6258,broth dilution,,171 µg/mL
O=C(CCn1ccnc1)c1cccc(C(O)c2ccc(Cl)cc2)c1,MIC,RTCC 1090,broth dilution,,64 µg/mL
CCCCCCCCn1cc[n+](COCCCOC[n+]2ccn(CCCCCCCC)c2)c1,MIC100,ATCC 6258,agar diffusion,,150 µM
C[C@@H](N1CCN(Cc2cn(Cc3ccc(Cl)cc3Cl)c3c(Cl)cccc23)CC1)[C@](O)(Cn1cncn1)c1ccc(F)cc1F,MIC80,ATCC 6258,resazurin,,1 µg/mL
C[C@H]1[C@H](O)[C@@H](C)/C=C/C=C/C=C/C=C/C=C/C=C/C=C/[C@H](O[C@@H]2O[C@H](C)[C@@H](O)[C@H](N)[C@@H]2O)C[C@@H]2O[C@](O)(C[C@@H](O)C[C@@H](O)CC[C@H](O)[C@@H](O)C[C@@H](O)CC(=O)O[C@H]1C)C[C@H](O)[C@H]2C(=O)O,MFC,Clinical isolate,visual reading,,2 µg/mL
CN(Cc1ccc(S(=O)(=O)N2CCOCC2)cc1)CC(O)(Cn1cncn1)c1ccc(F)cc1F,MIC,506,resazurin,,13.4 µg/mL
C[C@@H](N1CCN(Cc2cn(Cc3ccc(F)cc3F)c3c(C#N)cccc23)CC1)[C@](O)(Cn1cncn1)c1ccc(F)cc1F,MIC80,ATCC 6258,resazurin,,32 µg/mL
CCCCCCCCCCCCCCn1cc[n+](COCCCOC[n+]2ccn(CCCCCCCCCCCCCC)c2)c1,MIC100,ATCC 6258,agar diffusion,,7 µM
C[C@@H](N1CCN(Cc2cn(-c3ccc(F)cc3)c3cc(Cl)ccc23)CC1)[C@](O)(Cn1cncn1)c1ccc(F)cc1F,MIC80,ATCC 6258,resazurin,,0.5 µg/mL
C[C@@H]1C(=O)N(CCc2ccccc2)C(=O)[C@@H]1C,MIC,CCC 117-2000,broth dilution / turbidity,,125 µg/mL
C[C@@H](N1CCN(Cc2cn(Cc3ccc(F)cc3F)c3ccc(C#N)cc23)CC1)[C@](O)(Cn1cncn1)c1ccc(F)cc1F,MIC80,ATCC 6258,resazurin,,0.25 µg/mL
CCCCCCCn1cc[n+](COCCCCOC[n+]2ccn(CCCCCCC)c2)c1,MIC100,ATCC 6258,agar diffusion,,10 µM
NC(Cc1ccccc1)C(=O)CC(CC1C=Nc2ccccc21)C(=O)NC(Cc1cccc(O)c1)C(=O)O,MFC,ATCC 6258,broth dilution,,764 µg/mL
Cc1ccc(N2C(=O)CC(C)C2=O)cc1,MIC,CCC 117-2000,broth dilution / turbidity,,125 µg/mL
CCCCCCCCCCCCCCCCn1cc[n+](COCCCCCOC[n+]2ccn(CCCCCCCCCCCCCCCC)c2)c1,MIC100,ATCC 6258,agar diffusion,,6 µM
O=C(CCn1ccnc1)c1ccc(Br)cc1,MIC,RTCC 1001,broth dilution,,>64 µg/mL

A second listing of 5 rows from above:

SMILES | endpoint | strain | method | conditions | result
C[C@@H](N1CCN(Cc2cn(-c3ccc(F)cc3)c3cc(Cl)ccc23)CC1)[C@](O)(Cn1cncn1)c1ccc(F)cc1F | MIC80 | ATCC 6258 | resazurin |  | 0.5 µg/mL
C[C@@H](N1CCN(Cc2cn(Cc3cccc(C(F)(F)F)c3)c3ccccc23)CC1)[C@](O)(Cn1cncn1)c1ccc(F)cc1F | MIC80 | ATCC 6258 | resazurin |  | 1 µg/mL
CC(C)S(=O)(=O)Nc1ccc(CN(C)CC(O)(Cn2cncn2)c2ccc(F)cc2F)cc1 | MIC | 506 | resazurin |  | 17.5 µg/mL
CN(Cc1ccc(NS(=O)(=O)c2ccccc2)cc1)CC(O)(Cn1cncn1)c1ccc(F)cc1F | MIC | 8 | resazurin |  | 1.7 µg/mL
OC(CCn1ccnc1)c1ccc(Br)cc1 | MIC | RTCC 1001 | broth dilution |  | >64 µg/mL

Blank or dashed fields: not listed here. Lines come from different laboratories, so protocols vary.